Compound potency records, mixed from different reports. Data source: NIAID ChemDB in PubChem.

Common to all: growth or infection tests; species: Hepatitis C virus; read-out: EC50

ECn: concentration that inhibits the pathogen or its effect by n%.

{"compound": "O=C(O)c1ccc2c(C3CCCCC3)c3n(c2c1)CCCc1nccnc1-3", "cell line": "Huh7", "method": "replicon", "value": "1–10 µM"}
{"compound": "NC(=O)COc1ccc2c(c1)S(=O)(=O)N=C(c1c(O)c3cc(F)ccc3n(CCC3CC3)c1=O)N2", "strain": "1a 33776", "method": "replicon", "value": "0.061 µM"}
{"compound": "CC(C)Oc1nc(N)nc2ccc(-c3ccc(C(=O)NC4CC4)cc3)nc12", "cell line": "Huh7", "method": "replicon", "value": "<0.3 µM"}
{"compound": "NC(=S)Nc1ccc2c(c1)Cc1cc(N(CCCc3ccccc3)CCCc3ccccc3)ccc1-2", "cell line": "Ava5-EG(delta4AB)SEAP", "method": "reporter gene / fluorescence", "value": "0.001–1 µM"}
{"compound": "COC(=O)c1ccc2c(C3CCCCC3)c3n(c2c1)C=C(C#N)Cc1ccccc1-3", "cell line": "Huh7", "method": "replicon", "value": "0.01–1 µM"}
{"compound": "CCCCCCc1ccc(N(C(N)=O)c2nc(-c3cccnc3)c(F)s2)cc1C(F)(F)F", "value": "<1 µM"}
{"compound": "COC(=O)c1ccc2c(C3CCCCC3)c3n(c2c1)CC(C(=O)N(C)C)=Cc1ccccc1-3", "cell line": "Huh7", "method": "replicon", "value": "0.01–1 µM"}
{"compound": "CCOc1cc2c(C(=O)NC)c(-c3ccc(F)cc3)oc2cc1N(C)S(C)(=O)=O", "cell line": "Huh7", "method": "replicon", "value": "<1 µM"}
{"compound": "CC1(C)CC(=O)C2=C(C1)Nc1c(O)cccc1NC2c1cccc2ccccc12", "strain": "1b", "method": "luciferase / reporter gene / replicon", "value": ">32 µM"}
{"compound": "O=C(Cc1ccccc1F)N/N=C/c1ccccc1OS(=O)(=O)c1ccc(C(F)(F)F)cc1", "cell line": "Huh7", "method": "replicon", "value": "<5 µM"}
{"compound": "CC1(C)CC(=O)C2=C(C1)Nc1c(O)cccc1N(C(=O)c1csc(-c3cccnc3)n1)C2c1ccc(OCc2ccccc2)cc1F", "strain": "1b", "method": "luciferase / reporter gene / replicon", "value": "0.81 µM"}
{"compound": "COc1ccc2nc(Cl)c(Cn3c(C(=O)O)c(-c4ccc[nH]c4=O)c4c5occc5c(F)cc43)cc2c1", "method": "replicon", "value": "<0.5 µM"}
{"compound": "O=C(CC1CCCO1)N/N=C/c1ccccc1OS(=O)(=O)c1ccc(C(F)(F)F)cc1", "cell line": "Huh7", "method": "replicon", "value": "<5 µM"}
{"compound": "CNC(=O)c1c(-c2ccc(F)cc2)oc2cc(C(C)(C)NS(C)(=O)=O)c(OC)cc12", "cell line": "Huh7", "method": "replicon", "value": "<10 µM"}
{"compound": "Cc1ncoc1C(=O)Nc1ccc(-c2cc(N(C(=O)C3CCC(C)CC3)C(C)C)c(C(=O)O)s2)cc1", "strain": "1a", "method": "replicon", "value": ">0.5 µM"}
{"compound": "CCOc1nc(N)nc2ccc(-c3ccc(NC(=O)C4(N)CC4)c(F)c3)nc12", "cell line": "Huh7", "method": "replicon", "value": "<0.3 µM"}
{"compound": "CNC(=O)c1c(-c2ccc(F)cc2)oc2cc(N3CCOCC3)c(OCCC#N)cc12", "cell line": "Huh7", "method": "replicon", "value": "<10 µM"}
{"compound": "CC(C)S(=O)(=O)NC(=O)c1c(-c2ccc[nH]c2=O)c2c3c(c(F)cc2n1Cc1cc2ccccc2nc1Cl)CCO3", "method": "replicon", "value": "<0.5 µM"}
{"compound": "CCNc1cc2oc(-c3ccc(F)cc3)c(C(=O)NC)c2c(Cl)c1OC", "cell line": "Huh7", "method": "replicon", "value": "<1 µM"}
{"compound": "CCOC(=O)/C=C/c1ccc(NC(=O)C2(NC(=O)c3ccc4c(C5CCCCC5)c5n(c4c3)CCNc3ccccc3-5)CCCC2)cc1", "cell line": "Huh7", "method": "replicon", "value": "0.01–1 µM"}
{"compound": "COCCOc1nc(N)nc2ccc(-c3ccc(NC(=O)OC)cc3)nc12", "cell line": "Huh7", "method": "replicon", "value": "0.3–1 µM"}
{"compound": "NC(=S)Nc1cccc(OCCCCCOc2ccc(C(=O)O)cc2)c1", "cell line": "Ava5-EG(delta4AB)SEAP", "method": "reporter gene / fluorescence", "value": "0.001–1 µM"}
{"compound": "COC(=O)N[C@H](C(=O)N1CCCC1c1ncc(-c2ccc(-c3ccc(-c4cnc([C@@H]5CC(C)CN5C(=O)[C@@H](NC(=O)CO)C(C)C)[nH]4)cc3)cc2)[nH]1)C(C)C", "changes": "L31F", "cell line": "ET", "strain": "1b", "method": "luciferase", "value": "0.000012 µM"}
{"compound": "C[C@@H]1COc2c1ccc1c2c(-c2ccc[nH]c2=O)c(C(=O)NS(C)(=O)=O)n1Cc1cc(F)ccc1F", "method": "replicon", "value": "<0.5 µM"}
{"compound": "O=C(CCc1cccnc1)N/N=C/c1ccccc1OS(=O)(=O)c1ccc(C(F)(F)F)cc1", "cell line": "Huh7", "method": "replicon", "value": "<5 µM"}
{"compound": "O=C(NS(=O)(=O)C1CC1)c1c(-c2ccc[nH]c2=O)c2c3occc3ccc2n1Cc1ccccc1F", "method": "replicon", "value": "<0.5 µM"}
{"compound": "COC(=O)/C=C/c1ccc(NC(=O)C2(NC(=O)c3ccc4c(C5CCCCC5)c5n(c4c3)CCCc3[nH]cnc3-5)CCCC2)cc1", "cell line": "Huh7", "method": "replicon", "value": "1–10 µM"}
{"compound": "CC1CCC(C(=O)N(c2cc(-c3ccc(NC(=O)c4ccccn4)nc3)sc2C(=O)O)C(C)C)CC1", "strain": "1a", "method": "replicon", "value": "<<0.5 µM"}
{"compound": "O=C(Cc1c(F)cccc1C(F)(F)F)N/N=C/c1ccccc1OS(=O)(=O)c1ccc(C(F)(F)F)cc1", "cell line": "Huh7", "method": "replicon", "value": "<5 µM"}
{"compound": "NC(=O)c1ccc(-c2ccc3nc(NCc4ccc(S(N)(=O)=O)cc4)nc(NCC(F)(F)F)c3n2)cc1", "method": "replicon", "value": "<0.1 µM"}
{"compound": "CC1CCC(C(=O)N(c2cc(-c3ccc(NC(=O)c4cscn4)nc3)sc2C(=O)O)C(C)C)CC1", "strain": "1a", "method": "replicon", "value": "<0.5 µM"}
{"compound": "CN(C)C(=O)C1Cc2ccccc2-c2c(C3CCCCC3)c3ccc(C(=O)O)cc3n2C1", "cell line": "Huh7", "method": "replicon", "value": "0.01–1 µM"}
{"compound": "Cc1nn(C)cc1C(=O)Nc1ccc(-c2cc(N(C(=O)C3CCC(C)CC3)C(C)C)c(C(=O)O)s2)cc1", "strain": "1a", "method": "replicon", "value": ">0.5 µM"}
{"compound": "CNC(=O)c1c(-c2ccc(F)cc2)oc2cc(C(O)C(C)C)c(OC(C)C)cc12", "cell line": "Huh7", "method": "replicon", "value": "<1 µM"}
{"compound": "NC(=S)Nc1cccc(OCCCOc2cccc3ccccc23)c1", "cell line": "Ava5-EG(delta4AB)SEAP", "method": "reporter gene / fluorescence", "value": "0.001–1 µM"}
{"compound": "CC1(C)CC(=O)C2=C(C1)Nc1c(O)cccc1N(C(=O)CCC#N)C2c1ccc(OCc2ccccc2)cc1F", "strain": "1b", "method": "luciferase / reporter gene / replicon", "value": "0.77 µM"}
{"compound": "NC(=S)Nc1cccc(OCCCCCNc2ccc(C3CCCCC3)cc2)c1", "cell line": "Ava5-EG(delta4AB)SEAP", "method": "reporter gene / fluorescence", "value": "0.001–1 µM"}
{"compound": "NS(=O)(=O)c1ccc(CNc2nc(NCC(F)(F)F)c3nc(-c4csc(N5CCCC5)n4)ccc3n2)cc1", "method": "replicon", "value": "<0.1 µM"}
{"compound": "COc1cccc(S(=O)(=O)Oc2ccccc2/C=N/NC(=O)Cc2ccccc2)c1", "cell line": "Huh7", "method": "replicon", "value": "5–50 µM"}
{"compound": "COc1ccnc(C(=O)N2c3cccc(O)c3NC3=C(C(=O)CC(C)(C)C3)[C@@H]2c2ccc(OCc3ccccc3)cc2F)c1", "strain": "1b", "method": "luciferase / reporter gene / replicon", "value": "1.09 µM"}
{"compound": "COc1cccc(CC(=O)N/N=C/c2ccccc2OS(=O)(=O)c2cc(Cl)sc2Cl)c1", "cell line": "Huh7", "method": "replicon", "value": "<5 µM"}
{"compound": "CCCCCCCCOc1ccc(N(C(=O)COC(C)=O)c2nc(-c3cccnc3)cs2)cc1C(F)(F)F", "value": "<1 µM"}
{"compound": "CCOc1nc(NCc2ccc(S(N)(=O)=O)cc2)nc2ccc(-c3ccc(C(=O)NC4CC4)cc3)nc12", "method": "replicon", "value": "<0.1 µM"}
{"compound": "CNC(=O)c1c(-c2cc(F)c(F)cc2F)oc2ccc(OC)cc12", "cell line": "Huh7", "method": "replicon", "value": "<30 µM"}
{"compound": "COC(=O)/C=C/c1ccc(CN(C)S(=O)(=O)NC(=O)c2ccc3c(C4CCCCC4)c4n(c3c2)CC(=O)Nc2ccccc2-4)cc1", "cell line": "Huh7", "method": "replicon", "value": "0.01–1 µM"}
{"compound": "O=C(O)c1c(-c2ccc[nH]c2=O)c2c3ncccc3ccc2n1Cc1cc(F)ccc1F", "method": "replicon", "value": "1–10 µM"}
{"compound": "CCCCN(CCCC)c1ccc2c(c1)Cc1cc(NC(N)=S)ccc1-2", "cell line": "Ava5-EG(delta4AB)SEAP", "method": "reporter gene / fluorescence", "value": "0.001–1 µM"}
{"compound": "CC(=O)N1c2cccc(O)c2NC2=C(C(=O)CC(C)(C)C2)C1c1cncn1C", "strain": "1b", "method": "luciferase / reporter gene / replicon", "value": ">100 µM"}
{"compound": "COc1ccc(CC(=O)N/N=C/c2ccccc2OS(=O)(=O)c2ccc(C(F)(F)F)cc2)c(OC)c1", "cell line": "Huh7", "method": "replicon", "value": "<5 µM"}
{"compound": "NS(=O)(=O)c1ccc(CNc2nc(NCC(F)(F)F)c3nc(-c4ccc(F)c(NS(=O)(=O)C5CC5)c4)ccc3n2)cc1", "method": "replicon", "value": "<0.1 µM"}
{"compound": "O=C(NS(=O)(=O)C1CC1)c1c(-c2ccc[nH]c2=O)c2c3occc3cc(F)c2n1Cc1cc(F)ccc1F", "method": "replicon", "value": "<0.5 µM"}
{"compound": "CCCCCOc1ccc(N(C(=O)C(=O)OC)c2nc(C(=O)Nc3cccnc3)cs2)cc1C(F)(F)F", "value": "<1 µM"}
{"compound": "COc1ccc(CC(=O)N/N=C/c2ccccc2OS(=O)(=O)c2ccc(C(F)(F)F)cc2)c(OC)c1OC", "cell line": "Huh7", "method": "replicon", "value": "<5 µM"}
{"compound": "CCOc1nc(NCc2ccc(S(N)(=O)=O)cc2)nc2ccc(-c3cccc(N(CCO)S(C)(=O)=O)c3)nc12", "method": "replicon", "value": "0.1–0.25 µM"}
{"compound": "CC(C)(C)C(=O)OCn1cc(F)c(Cn2c(C(=O)O)c(-c3ccc[nH]c3=O)c3c4occc4c(F)cc32)cc1=O", "method": "replicon", "value": "<0.5 µM"}
{"compound": "CCCCCN(C)c1ccc(N(C(N)=O)c2nc(-c3ccc(F)c(F)c3)cs2)cc1C(F)(F)F", "value": "<1 µM"}
{"compound": "O=C(O)c1ccc2c(C3CCCCC3)c3n(c2c1)CCCc1cc(O)ccc1-3", "cell line": "Huh7", "method": "replicon", "value": "0.01–1 µM"}
{"compound": "COc1cccc(CC(=O)N/N=C/c2cc(C)ccc2OS(=O)(=O)c2ccc(C)cc2)c1", "cell line": "Huh7", "method": "replicon", "value": "<5 µM"}
{"compound": "CC(C)(N)C(=O)Nc1ccc(-c2ccc3nc(NCc4ccc(F)cc4)nc(NCC(F)(F)F)c3n2)cc1", "method": "replicon", "value": "<0.1 µM"}
{"compound": "CNC(=O)c1c(-c2ccc(F)cc2)oc2cc(-c3c(C)noc3C)c(OC(C)C)cc12", "cell line": "Huh7", "method": "replicon", "value": "<1 µM"}
{"compound": "CCn1cncc1C(=O)Nc1ccc(-c2cc(N(C(=O)C3CCC(C)CC3)C(C)C)c(C(=O)O)s2)cc1", "strain": "1a", "method": "replicon", "value": ">0.5 µM"}

7 of the rows above, restated:

{"compound": "O=C(NS(=O)(=O)C1CC1)c1c(-c2ccc[nH]c2=O)c2c3occc3ccc2n1Cc1ccccc1F", "method": "replicon", "value": "<0.5 µM"}
{"compound": "CC(=O)N1c2cccc(O)c2NC2=C(C(=O)CC(C)(C)C2)C1c1cncn1C", "strain": "1b", "method": "luciferase / reporter gene / replicon", "value": ">100 µM"}
{"compound": "O=C(O)c1c(-c2ccc[nH]c2=O)c2c3ncccc3ccc2n1Cc1cc(F)ccc1F", "method": "replicon", "value": "1–10 µM"}
{"compound": "COc1cccc(CC(=O)N/N=C/c2cc(C)ccc2OS(=O)(=O)c2ccc(C)cc2)c1", "cell line": "Huh7", "method": "replicon", "value": "<5 µM"}
{"compound": "NC(=S)Nc1cccc(OCCCCCOc2ccc(C(=O)O)cc2)c1", "cell line": "Ava5-EG(delta4AB)SEAP", "method": "reporter gene / fluorescence", "value": "0.001–1 µM"}
{"compound": "O=C(CC1CCCO1)N/N=C/c1ccccc1OS(=O)(=O)c1ccc(C(F)(F)F)cc1", "cell line": "Huh7", "method": "replicon", "value": "<5 µM"}
{"compound": "O=C(CCc1cccnc1)N/N=C/c1ccccc1OS(=O)(=O)c1ccc(C(F)(F)F)cc1", "cell line": "Huh7", "method": "replicon", "value": "<5 µM"}

Lines come from different laboratories, so protocols vary. Two numbers with a dash give a range or band.